Anti-infective test results gathered from many reports (values: NIAID ChemDB through PubChem).

ICn is the concentration giving n% inhibition. Rows are shuffled and stem from different studies. Inhibition is in % at the dose shown (toxicity tests: loss of growth or viability). MIC50, MIC90 and the like: level of inhibition, or share of isolates inhibited. MIC bound comes from a single tested concentration.

{"SMILES": "O=C(CC(=O)Nc1ccccc1)CC(=O)Nc1ccccc1", "kind": "culture", "agent": "Mycobacterium tuberculosis", "strain": "H37Rv", "measure": "MIC", "value": "25 µg/mL"}
{"SMILES": "O=C(O)CNC1=C(Cl)C(=O)c2ccccc2C1=O", "kind": "culture", "agent": "Mycobacterium tuberculosis", "strain": "H37Rv", "read by": "BACTEC", "measure": "MIC bound", "value": ">12.5 µg/mL"}
{"SMILES": "CSc1ccc(-c2cncc(N3CCN(c4ccc(F)cc4)CC3)n2)cc1", "kind": "target", "agent": "Cytomegalovirus", "protein": "UL97 kinase", "measure": "IC50", "value": "<10 µM"}
{"SMILES": "COc1ccccc1-c1coc2c(ccc3oc(C(C)C)cc32)c1=O", "kind": "culture", "agent": "Mycobacterium tuberculosis", "strain": "H37Rv", "read by": "BACTEC", "measure": "MIC bound", "value": ">12.5 µg/mL"}
{"SMILES": "Cc1ccccc1-c1cncc(N2CCN(c3ccccc3F)CC2)n1", "kind": "target", "agent": "Cytomegalovirus", "protein": "UL97 kinase", "measure": "IC50", "value": "<100 µM"}
{"SMILES": "CCOC(=O)C(C(=O)OCC)[N+](C)(C)C.[Br-]", "kind": "culture", "agent": "Mycobacterium tuberculosis", "strain": "H37Rv", "measure": "MIC", "value": ">100 µg/mL"}
{"SMILES": "Cc1cccc(/C=N/Nc2ccccn2)n1", "kind": "culture", "agent": "Mycobacterium tuberculosis", "strain": "H37Rv", "read by": "BACTEC", "measure": "inhibition", "dose": "12.5 µg/mL", "value": "96%"}
{"SMILES": "Fc1ccc(N2CCCCC2)c(NC(=S)c2ccncc2)c1", "kind": "host protein", "protein": "PHKG1", "read by": "kinase activity", "measure": "inhibition", "dose": "10 µM", "value": "2.1%"}
{"SMILES": "Cc1cc(C)c(O)c(N=Nc2ccccc2C(=O)O)c1", "kind": "culture", "agent": "Mycobacterium tuberculosis", "strain": "H37Rv", "measure": "MIC", "value": ">100 µg/mL"}
{"SMILES": "CC(=O)c1cccc(-c2cncc(N3CCN(c4ccccc4)CC3)n2)c1", "kind": "target", "agent": "Cytomegalovirus", "protein": "UL97 kinase", "measure": "IC50", "value": "<10 µM"}
{"SMILES": "CC(=O)Oc1c(OC(C)=O)c(-c2ccc(O)c(O)c2)c(O)c(O)c1-c1ccc(O)cc1", "kind": "culture", "agent": "Mycobacterium tuberculosis", "strain": "H37Rv", "read by": "BACTEC", "measure": "MIC", "value": "≥12.5 µg/mL"}
{"SMILES": "O=C(O)C(c1ccccc1)(c1ccccc1)c1ccccc1", "kind": "culture", "agent": "Mycobacterium tuberculosis", "strain": "H37Rv", "measure": "MIC", "value": "100 µg/mL"}
{"SMILES": "CC(=O)OCC1OC(n2c(=S)n(-c3ccccc3)c(=O)c3ccccc32)C(OC(C)=O)C(OC(C)=O)C1OC(C)=O", "kind": "culture", "agent": "Mycobacterium tuberculosis", "strain": "H37Rv", "read by": "BACTEC", "measure": "MIC bound", "value": ">12.5 µg/mL"}
{"SMILES": "CSc1ccc(-c2cncc(N3CCN(c4ccc(C(F)(F)F)cc4)CC3)n2)cc1", "kind": "target", "agent": "Cytomegalovirus", "protein": "UL97 kinase", "measure": "inhibition", "dose": "1 µM", "value": "<50%"}
{"SMILES": "Cc1ccc(/C=C/C(=O)/C=C/c2ccc(C)o2)o1", "kind": "culture", "agent": "Mycobacterium tuberculosis", "strain": "H37Rv", "cells": "VERO", "read by": "BACTEC", "measure": "MIC", "value": "12.5 µg/mL"}
{"SMILES": "Nc1ccc(NC(=O)CC(=O)c2ccccc2)c(Cl)c1", "kind": "culture", "agent": "Mycobacterium tuberculosis", "strain": "H37Rv", "measure": "MIC", "value": "25 µg/mL"}
{"SMILES": "COc1ccccc1N1CCN(c2cncc(-c3ccsc3)n2)CC1", "kind": "target", "agent": "Cytomegalovirus", "protein": "UL97 kinase", "measure": "IC50", "value": "<100 µM"}
{"SMILES": "Nc1cnccc1C(=O)O", "kind": "culture", "agent": "Mycobacterium tuberculosis", "strain": "H37Rv", "measure": "MIC", "value": ">100 µg/mL"}
{"SMILES": "C=CCc1ccc(O)c(OC)c1", "kind": "culture", "agent": "Candida tropicalis", "strain": "3167", "read by": "turbidity", "measure": "MIC90", "value": "475 µg/mL"}
{"SMILES": "CC(O)c1nc(C(N)=O)cs1", "kind": "culture", "agent": "Mycobacterium tuberculosis", "strain": "H37Rv", "read by": "BACTEC", "measure": "MIC bound", "value": ">12.5 µg/mL"}
{"SMILES": "COc1ccc(N2CCN(c3cncc(-c4ccc(C(C)C)cc4)n3)CC2)cc1OC", "kind": "target", "agent": "Cytomegalovirus", "protein": "UL97 kinase", "measure": "inhibition", "dose": "1 µM", "value": "<50%"}
{"SMILES": "NC(N)=N/C(N)=N/c1cnc([N+](=O)[O-])s1", "kind": "culture", "agent": "Mycobacterium tuberculosis", "strain": "H37Rv", "read by": "resazurin", "measure": "MIC bound", "value": ">6.25 µg/mL"}
{"SMILES": "COc1cccc(N2CCN(c3cncc(-c4ccc(C(F)(F)F)cc4)n3)CC2)c1", "kind": "target", "agent": "Cytomegalovirus", "protein": "UL97 kinase", "measure": "IC50", "value": "<10 µM"}
{"SMILES": "Cc1cc(=O)oc2c(O)c(O)ccc12", "kind": "culture", "agent": "Mycobacterium tuberculosis", "strain": "H37Rv", "measure": "MIC", "value": "100 µg/mL"}
{"SMILES": "Cc1nc(N)sc1N=Nc1ccc(Cl)cc1", "kind": "culture", "agent": "Mycobacterium tuberculosis", "strain": "H37Rv", "read by": "BACTEC", "measure": "inhibition", "dose": "12.5 µg/mL", "value": "0%"}
{"SMILES": "CC(=O)NCc1c(C)cc(C)cc1C", "kind": "culture", "agent": "Mycobacterium tuberculosis", "strain": "H37Rv", "measure": "MIC", "value": ">100 µg/mL"}
{"SMILES": "CC[C@@H](C)C(=O)O[C@H]1[C@H](O)[C@H]2[C@@H](CN3C[C@@H](C)CC[C@H]3[C@@]2(C)O)[C@@H]2C[C@]34O[C@]5(O)[C@@H](OC(=O)[C@](C)(O)[C@@H](C)O)CC[C@@]3(C)[C@@H]5[C@@H](OC(C)=O)[C@@H](OC(C)=O)[C@H]4[C@@]21O", "kind": "culture", "agent": "Mycobacterium tuberculosis", "strain": "H37Rv", "read by": "BACTEC", "measure": "MIC", "value": "≥128 µg/mL"}
{"SMILES": "Cc1cc(=O)cc(C)[nH]1", "kind": "culture", "agent": "Mycobacterium tuberculosis", "strain": "H37Rv", "measure": "MIC", "value": ">100 µg/mL"}
{"SMILES": "c1ccc(C2CCN(c3cncc(-c4ccoc4)n3)CC2)cc1", "kind": "target", "agent": "Cytomegalovirus", "protein": "UL97 kinase", "measure": "inhibition", "dose": "10 µM", "value": ">15%"}
{"SMILES": "c1ccc2c(-c3cccc4c3oc3ccccc34)nccc2c1", "kind": "culture", "agent": "Mycobacterium tuberculosis", "strain": "H37Rv", "measure": "MIC", "value": "50 µg/mL"}
{"SMILES": "Cc1ccc(-c2cncc(N3CCN(c4ccccc4)CC3)n2)cc1", "kind": "target", "agent": "Cytomegalovirus", "protein": "UL97 kinase", "measure": "inhibition", "dose": "1 µM", "value": "<50%"}
{"SMILES": "Cc1cc(N)c2c(c1O)C(=O)c1ccccc1C2=O", "kind": "culture", "agent": "Mycobacterium tuberculosis", "strain": "H37Rv", "read by": "BACTEC", "measure": "inhibition", "dose": "12.5 µg/mL", "value": "-33%"}
{"SMILES": "CC(=O)Nc1ccc(S(=O)(=O)C(F)(F)F)cc1", "kind": "culture", "agent": "Mycobacterium tuberculosis", "strain": "H37Rv", "measure": "MIC", "value": ">100 µg/mL"}